Measurements reported in paper PMC11904634.

Amino acid sequences for entries named in this document (tags omitted). A change or cut given only in a name is not applied to a line headed by its entry.
UniProt Q8Z787: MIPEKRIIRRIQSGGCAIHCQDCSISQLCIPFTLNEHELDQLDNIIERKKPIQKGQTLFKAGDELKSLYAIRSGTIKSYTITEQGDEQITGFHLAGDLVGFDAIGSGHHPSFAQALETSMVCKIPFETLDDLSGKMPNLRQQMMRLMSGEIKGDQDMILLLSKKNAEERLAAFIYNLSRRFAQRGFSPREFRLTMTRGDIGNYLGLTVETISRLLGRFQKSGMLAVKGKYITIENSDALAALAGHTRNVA

Target: MBP-FNR (UniProt Q8Z787)
Experiment: EMSA
Settings: 20 mM sodium phosphate (pH 6.8 for MBP-STY2660, pH 8 for MBP-FNR), 5% glycerol, 0.1 mg/ml BSA, 1 mM DTT (listed as 10x buffer); 20 min at 37 C; 6% PAGE, ethidium bromide; recombinant protein; residues 1-250; protein details: N-terminal MBP (pMAL-c2X); probe letters rebuilt from the primers and the genome

“GGGGTACCCTTTTACGCTATGACTGACCGCAGACTGGCTCAGTCCAATCCTGTCCCCTGCCCGACTGAAACTTTTGGCCTGGGCGACGGTAATAAAATACGCAGTTGACGCAGTGAATAGTTCATCGACTAGATTCATATATAGATGCAATAAATCAATTTTATTTCTCAAAGCGAAAAACGCAAAATAGCTGCACCGACTTTCAGGAGTTTTTATGAAACTTTTTCGTATCCTTGACCCTTTCACGCTGACACTTATCACCGTGGTACTACTGGCCTCTTTTTTCCCGGCGGAAGGCGGCTTTGTGCCTGTCGTTGAAGGCATTACGACAGCGGCCATCGCTCTGCTGTTTTTTATGCATGGTGCGAAGCTTTCGCGTGAAGCGATCATCGCTGGCGGCAGCCACTGGCGGTTGCATCTGTGGGTCATGTGTAGCACTTTTGTGCTCTTTCCTGTCCTCGGCGTACTGTTTGCCTGGTGGGCGCCTGTCAATGTCGACCCTATGCTCTACAGCGGCTTTGGATCCCG (double strand) [STY2660 -395+118 (513 bp)]”: binds.

The exact form of at least one protein or probe is not confirmed.
